Compound potency records, mixed from different reports. Data source: NIAID ChemDB in PubChem.

Shared fields: whole-cell or culture tests

Zones are inhibition diameters on agar. Lines come from different laboratories, so protocols vary. MIC50, MIC90 and the like: level of inhibition, or share of isolates inhibited. An empty or dashed field is not shown.

SMILES	organism	strain	read by	read-out	tested at	result
COc1cccc(C=O)c1OC	Aspergillus terreus	UAB673	agar	MIC	-	2500 µM
Cc1ccc(N2NOC(=O)C2S(=O)(=O)Nc2ccc(-n3c(-c4ccc([N+](=O)[O-])cc4)nc4ccccc4c3=O)cc2)cc1	Aspergillus clavatus	MTCC323	agar diffusion	zone	250 µg/mL	23 mm
CCc1ccc(O)c(OC)c1	Aspergillus flavus	-	agar	MIC100	-	497 µg/mL
O=C/C=C/c1ccccc1	Aspergillus terreus	UAB673	agar	MIC	-	500 µM
CCC(C)n1ncn(-c2ccc(N3CCN(c4ccc(OC[C@H]5CO[C@](Cn6cncn6)(c6ccc(Cl)cc6Cl)O5)cc4)CC3)cc2)c1=O	Aspergillus fumigatus	60 isolates	-	Geometric mean MIC	-	0.65 µg/mL
COc1c(O)cc2oc(-c3ccc(O)cc3)cc(=O)c2c1O	Aspergillus tubingensis	-	agar diffusion	zone	400 µg/mL	0 mm
Cc1ccc(N2NOC(=O)C2S(=O)(=O)Nc2nc(-c3ccc([N+](=O)[O-])cc3)cs2)cc1	Aspergillus clavatus	MTCC323	broth dilution	MIC	-	1000 µg/mL
OC(Cn1cncn1)(Cn1cncn1)c1ccc(F)cc1F	Aspergillus oryzae	CCAM 080006	broth dilution	MFC100	-	5 µg/mL
Cc1ccc(C(C)C)cc1O	Aspergillus flavus	-	agar	MIC100	-	200 µg/mL
COc1ccc2nc(NS(=O)(=O)C3C(=O)ONN3c3ccc(C)cc3)sc2c1	Aspergillus clavatus	MTCC323	agar diffusion	zone	250 µg/mL	24 mm
CCc1ccccc1O	Aspergillus fumigatus	-	agar	MIC100	-	361 µg/mL
CC(C)c1cc2c(c(O)c1O)[C@@]1(C(=O)O)CCCC(C)(C)C1CC2	Aspergillus tubingensis	-	agar diffusion	zone	200 µg/mL	0 mm
[Al]#[P]	Aspergillus terreus	-	agar	MFC	-	>5 µg/mL
C[C@@H]1[C@H](O)[C@@H](C)/C=C/C=C/CC/C=C/C=C/C=C/C=C/C(O[C@H]2O[C@H](C)[C@@H](O)[C@H](N)[C@@H]2O)CC2O[C@](O)(CC(O)C(O)CCC(O)CC(O)CC(O)CC(=O)O[C@H]1C)CC(O)C2C(=O)O	Aspergillus clavatus	MTCC323	broth dilution	MIC	-	100 µg/mL
COc1cc(C)ccc1O	Aspergillus fumigatus	-	agar	MIC100	-	928 µg/mL
Cc1ccc(N2NOC(=O)C2S(=O)(=O)Nc2nc(-c3ccc(F)cc3F)cs2)cc1	Aspergillus clavatus	MTCC323	agar diffusion	zone	250 µg/mL	25 mm
COc1cc(C=O)cc(OC)c1	Aspergillus terreus	UAB698	agar	MIC	-	1000 µM
COc1ccc(-c2csc(NS(=O)(=O)C3C(=O)ONN3c3ccc(C)cc3)n2)cc1	Aspergillus clavatus	MTCC323	broth dilution	MIC	-	500 µg/mL
O=C(O)/C=C/c1ccc(O)c(O)c1	Aspergillus fumigatus	-	agar	MIC100	-	>1000 µg/mL
Cc1ccc(N2NOC(=O)C2S(=O)(=O)Nc2ccc(-n3c(-c4cccc(Cl)c4)nc4ccccc4c3=O)cc2)cc1	Aspergillus clavatus	MTCC323	broth dilution	MIC	-	200 µg/mL
COc1cc(C(=O)O)cc(OC)c1O	Aspergillus fumigatus	-	agar	MIC50	-	>1000 µg/mL

A second listing of 2 rows from above:

SMILES | organism | strain | read by | read-out | tested at | result
Cc1ccc(N2NOC(=O)C2S(=O)(=O)Nc2ccc(-n3c(-c4ccc([N+](=O)[O-])cc4)nc4ccccc4c3=O)cc2)cc1 | Aspergillus clavatus | MTCC323 | agar diffusion | zone | 250 µg/mL | 23 mm
COc1ccc(-c2csc(NS(=O)(=O)C3C(=O)ONN3c3ccc(C)cc3)n2)cc1 | Aspergillus clavatus | MTCC323 | broth dilution | MIC | - | 500 µg/mL